Pooled drug test results. Numbers come from NIAID ChemDB, via PubChem.

Common to all: tests in culture

Conditions beyond the fields shown may differ between rows. A number after MIC or MFC names an inhibition level or a share of isolates. An empty or dashed field is not shown. Two numbers with a dash give a range or band. Inhibition is in % at the dose shown (toxicity tests: loss of growth or viability). Zone: diameter of growth inhibition. ECn is the concentration giving n% inhibition of infection, replication or growth.

SMILES | strain | dose | measure | organism | read by | cells | result
COc1ccc(C2OC(c3sc4ccc(Cl)cc4c3Cl)=NN2C(C)=O)cc1 | ATCC 27853 | 40 µg/mL | zone | Pseudomonas aeruginosa | agar diffusion / agar |  | 22 mm
NC(=NCCCc1ccccc1)c1ccc(N2CCN(c3ccccc3)CC2)cc1 |  | 50 µg/mL | inhibition | Pneumocystis carinii |  |  | 95%
Cc1ccc(Cl)cc1N=Nc1c(C)[nH]n(C(=O)c2sc3ccc(Cl)cc3c2Cl)c1=O | ATCC 27853 | 40 µg/mL | zone | Pseudomonas aeruginosa | agar diffusion / agar |  | 14 mm
N=C(N)c1ccc(N2CCN(c3ccccc3)CC2)cc1 |  | 50 µg/mL | inhibition | Pneumocystis carinii |  |  | 87%
CC=NC(=N)c1nc(-c2ccc(C)cc2)n(C/C=C/c2ccccc2)n1 | TYPE B4 |  | EC50 | Coxsackie virus | cytopathic effect | HeLa | >10 µg/mL
Cc1ccc(CCCOc2c(C)cc(-c3noc(C(F)F)n3)cc2C)nn1 |  |  | EC50 | Coxsackie virus | cytopathic effect | HeLa | 0.033–0.659 µg/mL
N#CC(c1ccc(Cl)cc1)c1c(Cl)cc(-n2ncc(=O)[nH]c2=O)cc1Cl | RH | 0.0025 µg/mL | inhibition | Toxoplasma gondii |  |  | 49.7–64%
Nc1nc(=O)n2ccn(C3O[C@H](CO)[C@@H](O)[C@H]3O)c2n1 | TYPE 2 |  | EC50 | Dengue virus |  |  | >100 µM
CCC(CC)[C@H](NC(C)=O)[C@@H]1[C@H](O)[C@@H](C(=O)O)C[C@H]1N=C(N)N | H1N1 A/Beijing/252/95 |  | EC50 | Influenza A virus |  | MDCK | 0.36 µM
CC(C)N=C(N)/N=C(\N)NOCCCOc1cc(Cl)c(Cl)cc1Cl | 2242 |  | MIC | Mycobacterium avium complex |  |  | 32 µg/mL
CC=NC(=N)c1nc(-c2ccc(C)cc2)n(COCCO)n1 |  |  | EC50 | Semliki Forest virus | cytopathic effect | VERO | >100 µg/mL
COc1cc(OC)c(NC(=S)Nc2ccc(NC(=O)c3ccco3)cc2)cc1Cl | Colburn |  | EC50 | Simian cytomegalovirus |  | HFF | >20 µM
CCOC(=O)c1c(C)nc(NCCCCNc2ccnc3cc(Cl)ccc23)nc1-c1ccccc1[N+](=O)[O-] | L24/01 |  | MIC99 | Cryptococcus gattii |  |  | 8 µg/mL
O=C1[C@@H](Cc2ccc(O)cc2)NC(=S)N1c1ccccc1 |  | 10 µg/mL | inhibition | HIV-2 | cytopathic effect / XTT | MT-4 | 12%
CCC(C)n1ncn(-c2ccc(N3CCN(c4ccc(OC[C@H]5CO[C@](Cn6cncn6)(c6ccc(Cl)cc6Cl)O5)cc4)CC3)cc2)c1=O | VG IIc |  | MIC50 | Cryptococcus gattii | broth dilution |  | 0.25 µg/mL
C=CCc1ccc(O)c(OC)c1 | 342 |  | MIC90 | Candida krusei | turbidity |  | 500 µg/mL
NCCCC[C@H](NC(=O)[C@@H](N)CCCCN)C(=O)N[C@@H](CCC(N)=O)C(=O)N[C@@H](CCCN=C(N)N)C(=O)O | ATCC 32264 | 100 µM | inhibition | Cryptococcus neoformans |  |  | 100%
CCCCCCCCCCCCCCCCCCOCCCOP1(=O)CO[C@@H](Cn2ccc(N)nc2=O)CO1 |  |  | EC50 | Guinea pig cytomegalovirus | plaque count | MRC-5 | 0.001 µM
Nc1ncnc2c1ncn2[C@@H]1C[C@H](N)[C@@H](O)[C@H]1O | Chicago |  | EC50 | Measles virus | neutral red | CV-1 | <0.1 µg/mL
O=C(NCCc1ccccc1)Nc1nc2ccc(F)cc2s1 |  | 100 µg/mL | inhibition | HIV-2 | RT activity | MT-4 | 97%
CCCCCCCCCCCCCCCCCCCCCCOCC(C)(COCCCCCCCCCCCCCCCCCCCCCC)CO[C@]1(C(=O)O)C[C@H](OS(=O)(=O)O)[C@@H](NC(C)=O)[C@H]([C@H](OS(=O)(=O)O)[C@@H](COS(=O)(=O)O)OS(=O)(=O)O)O1 | MO (serotype 3) |  | EC50 | Rotavirus | plaque count | MA-104 | 2.2 µg/mL
CC(=O)c1ccc(CCCOc2cc(C)c(-c3noc(C)n3)c(C)c2)nn1 |  |  | EC50 | Coxsackie virus | cytopathic effect | HeLa | 0.033–0.659 µg/mL
O=C1[C@@H](Cc2ccccc2)NC(=S)N1c1ccccc1 |  | 0.1 µg/mL | inhibition | HIV-2 | RT activity | MT-4 | 42%
O=C(O)CP(=O)(O)O | Oka PFA-resistant/A |  | EC50 | Varicella zoster virus | cytopathic effect | HEL | 254.2 µM
CCC(CC)N=C(N)c1ccc(N2CCN(c3ccccc3)CC2)cc1 |  | 0.1 µg/mL | inhibition | Pneumocystis carinii |  |  | 43%
Oc1ccccc1N=Cc1ccccc1 | WP |  | MIC99 | Cryptococcus neoformans |  |  | 8 µg/mL
CC(=O)c1ccc(CCCOc2ccc(-c3noc(C(F)F)n3)c(C)c2)nn1 |  |  | EC50 | Enterovirus | cytopathic effect | HeLa | 0.033–0.659 µg/mL
O=c1[nH]c(=O)n([C@H]2C[C@H](O)[C@@H](CO)O2)cc1Br |  |  | EC50 | Murine polyoma virus | hybridisation | ME | 0.05–0.25 µg/mL
Nc1ccn(C[C@@H](CO)OCP(=O)(O)O)c(=O)n1 | Oka PMEA-resistant |  | EC50 | Varicella zoster virus | cytopathic effect | HEL | 0.76 µM
Nc1nc(=O)n2ccn([C@@H]3O[C@H](CO)[C@@H](O)[C@H]3O)c2n1 |  |  | EC50 | West Nile virus |  |  | >100 µM
CCCCN=C(N)c1ccc(N2CCN(c3ccccc3)CC2)cc1 |  | 50 µg/mL | inhibition | Pneumocystis carinii |  |  | 94%
CC=NC(=N)c1nc(-c2ccccc2)n(C/C=C/c2ccccc2)n1 | TYPE B4 |  | EC50 | Coxsackie virus | cytopathic effect | VERO | >4 µg/mL
CN1C(=O)[C@@H](Cc2ccccc2)NC1=S |  | 0.1 µg/mL | inhibition | HIV-2 | cytopathic effect / XTT | MT-4 | 34%
Nc1nc2c(ncn2CCC(CO)CO)c(=O)[nH]1 | Oka CF1743-resistant |  | EC50 | Varicella zoster virus | cytopathic effect | HEL | 43.6 µM
Nc1ncnc2c1ncn2[C@@H]1C=C[C@@H](O)[C@H]1O | X-1108 |  | EC50 | Measles virus | neutral red | CV-1 | >100 µg/mL
Nc1ccn(C[C@@H](CO)OCP(=O)(O)O)c(=O)n1 |  |  | EC50 | Guinea pig cytomegalovirus | plaque count | MRC-5 | 0.31 µM
CCCC(CCC)C(NC(C)=O)C1C(N=C(N)N)CC(C(=O)O)C1O | Influenza A/Washington/05/96 (H3N2) |  | EC50 | Influenza A virus |  | MDCK | <0.01 µM
CCc1ccc(CCCOc2cc(C)c(-c3noc(C(F)(F)F)n3)c(C)c2)nn1 |  |  | EC50 | Enterovirus | cytopathic effect | HeLa | 0.033–0.659 µg/mL
N#Cc1csc(NC(=O)NCCc2ccccc2)n1 |  | 0.1 µg/mL | inhibition | HIV-2 | cytopathic effect / XTT | MT-4 | 74%
O=[N+]([O-])c1ccc(C=Nc2ccccc2O)cc1 | ATCC 24065 |  | MIC99 | Cryptococcus gattii |  |  | 8 µg/mL
CC=NC(=N)c1nc(-c2cccc(OC)c2)n(COCCO)n1 | TYPE 1 |  | EC50 | Reovirus | cytopathic effect | VERO | 70 µg/mL
CS[C@@H]1C=C[C@H](n2cnc3c(N)ncnc32)C1 |  |  | EC50 | Measles virus | neutral red | CV-1 | >100 µg/mL
Cc1[nH]n(C(=O)c2sc3ccc(Cl)cc3c2Cl)c(=O)c1N=Nc1ccc(F)cc1 | ATCC 27853 | 40 µg/mL | zone | Pseudomonas aeruginosa | agar diffusion / agar |  | 15 mm
Nc1nc2c(ncn2COC(CO)CO)c(=O)[nH]1 | Oka PMEDAP-resistant |  | EC50 | Varicella zoster virus | cytopathic effect | HEL | 0.17 µM
Cc1cc(OCCCc2ccc(F)nn2)cc(C)c1-c1noc(C(F)(F)F)n1 |  |  | EC50 | Enterovirus | cytopathic effect | HeLa | 0.033–0.659 µg/mL
CC(=O)Nc1ccc(C(=O)O)cc1 |  | 1000 µM | inhibition | Pneumocystis carinii |  |  | 80%
O=C(NCCc1ccccc1)Nc1cncc(Cl)n1 |  | 1 µg/mL | inhibition | HIV-2 | cytopathic effect / XTT | MT-4 | 8–55%
COc1cc(OC)c(NC(=S)Nc2ccc(NC(C)=O)cc2)cc1Cl |  |  | EC50 | Rhesus cytomegalovirus |  | HFF | >20 µM
Nc1ncnc2c1ncn2[C@@H]1CC[C@@H](O)[C@H]1O | CC |  | EC50 | Measles virus | cytopathic effect | CV-1 | 0.5 µg/mL
Nc1ncnc2c1c(Br)cn2COCCO | Lymphotropic |  | EC50 | Guinea pig herpesvirus | virus yield | GPE | <160 µg/mL
COc1ccc(C2OC(c3sc4ccc(Cl)cc4c3Cl)=NN2C(C)=O)cc1OC | ATCC 27853 | 40 µg/mL | zone | Pseudomonas aeruginosa | agar diffusion / agar |  | 29 mm
CCOC(=O)c1cnc(NCCCCNc2ccnc3cc(Cl)ccc23)nc1C | L-28/02 |  | MIC99 | Cryptococcus gattii |  |  | 8 µg/mL
CC(C)CS[C@H]1C[C@@H](n2cnc3c(N)ncnc32)[C@H](O)[C@@H]1O |  |  | EC50 | Measles virus | neutral red | CV-1 | >100 µg/mL
CC(=O)N1N=C(c2sc3ccc(Cl)cc3c2Cl)OC1c1cccc(Oc2ccccc2)c1 | ATCC 27853 | 40 µg/mL | zone | Pseudomonas aeruginosa | agar diffusion / agar |  | 14 mm
CCCc1ccc(CCCOc2ccc(-c3ccccc3)c(Br)c2)nn1 |  |  | EC50 | Coxsackie virus | cytopathic effect | HeLa | 0.033–0.659 µg/mL
O=C(NCCc1ccccc1)Nc1nc2c(Cl)cccc2s1 |  | 10 µg/mL | inhibition | HIV-2 | RT activity | MT-4 | 72%
CCCCCCCCCCCCCCCCCCOCCOP(=O)(O)CO[C@H](CO)Cn1ccc(N)nc1=O |  |  | EC50 | Guinea pig cytomegalovirus | plaque count | MRC-5 | 0.0009 µM
CCOc1ccccc1CCNC(=S)Nc1nccs1 |  | 100 µg/mL | inhibition | HIV-2 | cytopathic effect / XTT | MT-4 | 100%
Cc1nc(NCCCCNc2ccnc3cc(Cl)ccc23)nc(-c2ccccc2)c1C(=O)OC(C)C | L-28/02 |  | MIC99 | Cryptococcus gattii |  |  | 8 µg/mL
CCC(CC)O[C@@H]1C=C(C(=O)O)C[C@H](N)[C@H]1NC(C)=O | H1N1 A/Bayern/09/95 |  | EC50 | Influenza A virus | visual reading | MDCK | 3 µM
O=C(O)P(=O)(O)O | Clinical isolate VZV-30 |  | EC50 | Varicella zoster virus | cytopathic effect | HEL | 93.8 µM
C=C(N=CC)c1nc(-c2cccc(C)c2)n(C2O[C@H](CO)[C@@H](O)[C@H](O)[C@H]2O)n1 | TYPE 1 |  | EC50 | Reovirus | cytopathic effect | VERO | >100 µg/mL
Nc1nc(=O)n2ccn([C@@H]3C[C@@H](O)[C@H](CO)O3)c2n1 | TYPE 2 |  | EC50 | Dengue virus |  |  | >100 µM
Cc1cc(OCCCc2ccc(CO)nn2)cc(C)c1-c1noc(C(F)(F)F)n1 |  |  | EC50 | Enterovirus | cytopathic effect | HeLa | 0.033–0.659 µg/mL